Paper PMC5028891, “Structural basis for disruption of claudin assembly in tight junctions by an enterotoxin” (2016)

Tests used:
Test in all cases: pull-down
[1] = molecular target: human claudin-4 (full-length) F35A, human, O14493 1-209
[2] = molecular target: human claudin-4 (full-length) N53A, human, O14493 1-209
[3] = molecular target: human claudin-4 (full-length) N53D, human, O14493 1-209

Which result [1] does the source give for “glutathione-S-transferase-tagged C-CPE (residues 185′–319′), wild type F35A” here?
The result was “binds”.

Which result [2] does the source give for “glutathione-S-transferase-tagged C-CPE (residues 185′–319′), wild type N53A” here?
The result was “binds”.

“glutathione-S-transferase-tagged C-CPE (residues 185′–319′), wild type N53D” was tested. Which result [3] did it give?
The result was “binds”.
